Measurements reported in PubChem BioAssay AID504761 (Drosophila RNAi Screening Center, 2011).
Aim: 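Fly genes whose silencing reduces dengue virus type 2 infection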 (primary screen). Cell system: D.Mel-2 cells from Drosophila. Reagents: long dsRNA against Drosophila genes. Treatment: infection with dengue virus type 2; dose and infection time not stated. Measurement: 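Per well on two replicate plates, imaging gave the percent of cells positive for viral envelope protein, ranked by infection, and a nuclear count of cells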. Reading the numbers: infection score: higher = more virus-infected cells; cell count: higher = more cells in the well. Call rule: 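Very low infection ranking in both replicate wells (chance probability at most 0.065), then a retest showing infection dropped 1.5-fold or more at p below 0.05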. Meaning of the calls: active = confirmed: knock-down lowers infection; inactive = not picked or not confirmed.
The deposit covers about 22,000 reagents; this is a random part of those with a known target gene and a result. In the full data, 116 (0.52%) got an active call. 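Calls depend on retest data that are not deposited; infection was ranked per plate without normalising between plates; the unit of the infection score is not given.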 The raw values are shown without normalisation. Reagents against one gene are numbered here. A plus sign joins genes that one reagent is predicted to hit. Not given: the amount of reagent, the time to read-out.

target	reagent	infection score, replicate 1	infection score, replicate 2	cell count, replicate 1	cell count, replicate 2	activity call
CG9948	1	12.8	10.2	6115	6299	inactive
Dhx15	1	10.7	11.2	6094	6797	inactive
Dhx15	2	2.92	9.1	6702	6019	inactive
Gem4b + Gem4c	1	3.72	6.28	6163	6578	inactive
CG12170	1	5.98	10.1	6385	6945	inactive
CG31459	1	1.85	1.1	5771	5356	inactive
aurA	1	5.04	9.92	6250	5675	inactive
aurA	2	7.48	20.8	6167	5695	inactive
CG6700	1	23.9	17.7	6077	6126	inactive
CG6700	2	8.21	6.49	6441	5902	inactive
ACXA	1	4.46	3.53	6185	6210	inactive
ACXA	2	3.46	5.62	5977	6247	inactive
Cpr47Ea	1	4.33	11.1	6375	5777	inactive
CG7164	1	3.91	5.21	6552	6700	inactive
CG7164	2	13.7	4.39	3650	934	inactive
CG11975	1	4.5	10.6	6684	6903	inactive
CG6484	1	12.2	13.6	3555	4099	inactive
CG6484	2	17.8	28.1	6412	3743	inactive
CG33322	1	19.6	3.55	4176	6792	inactive

Next part (2 carried over from the part before).
target	reagent	infection score, replicate 1	infection score, replicate 2	cell count, replicate 1	cell count, replicate 2	activity call
CG6484	2	17.8	28.1	6412	3743	inactive
CG33322	1	19.6	3.55	4176	6792	inactive
CG9550	1	3.04	2.13	6082	6584	inactive
CG9550	2	13.6	3.76	5611	5660	inactive
CG1578	1	2.7	2.43	6138	6333	inactive
CG1578	2	4.24	16	6220	6638	inactive
CG14958	1	0.38	1.44	5855	5979	inactive
CG1407	1	29.9		6195	430	inactive
CG12460 (retired record)	1	4.83	5.65	4780	4870	inactive
inc	1	3.35	10.6	6886	5423	inactive
inc	2	1.25	2.65	6379	6872	inactive
inc	3	26.3	17.5	4952	4880	inactive
Tie	1	1.43	1.94	6086	5257	inactive
Tie	2	3.33	3.48	5368	5611	inactive
CG33278	1	1.74	6.65	6221	5532	inactive
CG33278	2	1.52	1.26	5539	5634	inactive
ro	1	2.75	2.35	6249	6677	inactive
ro	2	1.09	3.62	5947	6188	inactive
FucT6	1	2.19	1.93	6588	6412	inactive
FucT6	2	1.58	2.6	6885	6503	inactive
Polr1E	1	1.88	21.4	6811	5517	inactive
Polr1E	2	3.5	3.57	6088	6589	inactive
